# Tested on: Aβ42
# Assay: Sandwich Aβ42 assay (MSD ECL) measuring Aβ42 in human CSF with full length or modified reference standard
# Details: peptide used as reference standard
sequence,measurement,setting,value
"DAEFRHDSGYEVHMVGGVVIA (Modified Peptide) [Modified Aβ xx-42 peptide, native Aβ42 amino acids (1-14)(35-42) with no spacer in between]",Aβ42 Concentration,"CSF-1, 1:2 dil",Below limit of detection
same,Aβ42 Concentration,"CSF-1, 1:4 dil",Below limit of detection
same,Aβ42 Concentration,"CSF-2, 1:2 dil",27.8 pg/mL
same,Aβ42 Concentration,"CSF-2, 1:4 dil",56.8 pg/mL
same,Aβ42 Concentration,"CSF-3, 1:2 dil",80.4 pg/mL
same,Aβ42 Concentration,"CSF-3, 1:4 dil",126.4 pg/mL
